Taken from: PubChem BioAssay AID504761 (Drosophila RNAi Screening Center, 2011)

Screen: 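Fly genes whose silencing reduces dengue virus type 2 infection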 (primary screen)
Cells: D.Mel-2 cells from Drosophila
Knock-down reagent: long dsRNA against Drosophila genes
Challenge: infection with dengue virus type 2; dose and infection time not stated
Detection: 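Per well on two replicate plates, imaging gave the percent of cells positive for viral envelope protein, ranked by infection, and a nuclear count of cells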
Direction: infection score: higher = more virus-infected cells; cell count: higher = more cells in the well
Active means: 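Very low infection ranking in both replicate wells (chance probability at most 0.065), then a retest showing infection dropped 1.5-fold or more at p below 0.05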
Meaning of the calls: active = confirmed: knock-down lowers infection; inactive = not picked or not confirmed
In all, the deposit lists about 22,000 reagents; below is a random part of those that have a named target and a result. Over the whole deposit, 116 (0.52%) were called active. 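Calls depend on retest data that are not deposited; infection was ranked per plate without normalising between plates; the unit of the infection score is not given.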 Raw values are not corrected between plates. A plus sign joins genes that one reagent is predicted to hit. Not all columns of the deposit are shown. The record does not give: the amount of reagent, the time to read-out.

predicted target	amplicon	infection score, replicate 1	infection score, replicate 2	cell count, replicate 1	Outcome
CG13557 (GeneID 37717)	DRSC04195	17.6	18.1	5055	inactive
CG3819 (GeneID 40069)	DRSC10378	1.93	3.64	6596	inactive
CG3819 (GeneID 40069)	DRSC27675	11.7	2.26	6110	inactive
CG9147 (GeneID 33855)	DRSC03147		4.94	72	inactive
CG9147 (GeneID 33855)	DRSC27889	10.3	4.21	6862	inactive
CG11162 (GeneID 32325)	DRSC19391	9.74	9.48	6353	inactive
CG11162 (GeneID 32325)	DRSC22538	15.3	0.64	3885	inactive
tau (GeneID 326116)	DRSC23046	1.22	6.22	6461	inactive
CG7131 (GeneID 42197)	DRSC16203	3.3	2.66	6038	inactive
CG7131 (GeneID 42197)	DRSC29880	22.5	11.2	5520	inactive
CG15375 (GeneID 31356)	DRSC18045	4.98	1.91	6102	inactive
CG15375 (GeneID 31356)	DRSC29860	17.5	18.9	6522	inactive
CG13884 (GeneID 38064)	DRSC08354	1.44	7.23	6333	inactive
BOD1 (GeneID 43352)	DRSC15824	13.4	6.12	6253	inactive
BOD1 (GeneID 43352)	DRSC24273	2.56	8.97	7069	inactive
Vha100-4 (GeneID 42214)	DRSC16282	3.33	9.11	6661	inactive
Vha100-4 (GeneID 42214)	DRSC26139	5.43	0.58	6707	inactive
CG17198 + CG17197	DRSC15190	0.87	3.83	6231	inactive
CG17198 + CG17197	DRSC15191	2.7	8.64	6070	inactive
Cyt-c1 (GeneID 38612)	DRSC10447	8.96	13.9	3070	inactive
Cyt-c1 (GeneID 38612)	DRSC29221	9.04		1360	inactive
jing (GeneID 35555)	DRSC04923	8.17	3.25	5351	inactive
jing (GeneID 35555)	DRSC05000	7.27	27.5	6728	inactive
Gfrl (GeneID 3346162)	DRSC15197	14.3	11.2	6747	inactive
Gfrl (GeneID 3346162)	DRSC15199	9.49	3.69	6301	inactive
Gfrl (GeneID 3346162)	DRSC15565	4.89	3.72	7143	inactive
Gfrl (GeneID 3346162)	DRSC15719	10.1	0.99	5889	inactive
Gfrl (GeneID 3346162)	DRSC25385	7.85	1.9	6115	inactive
Gfrl (GeneID 3346162)	DRSC26132	14.7	5.35	6145	inactive
Gfrl (GeneID 3346162)	DRSC27810	12.6	33.9	6976	inactive
Gfrl (GeneID 3346162)	DRSC28808	14.1	14.9	5697	inactive
Dic4 (GeneID 40039)	DRSC10317	5.82	2.47	6718	inactive
CG32650 (GeneID 326227)	DRSC19899	1.34	3.15	6732	inactive
CG15177 (GeneID 40810)	DRSC12557	2.44	17.4	903	inactive
CG15177 (GeneID 40810)	DRSC24687	1.29	2.02	6267	inactive
CG7214 (GeneID 34053)	DRSC03028	1.3	1.9	1921	inactive
CG7214 (GeneID 34053)	DRSC21869	11.6	3.43	2445	inactive
CG7214 (GeneID 34053)	DRSC29482		6.32	229	inactive
Ack (GeneID 38489)	DRSC08135	0.9	2.28	5668	inactive
Ack (GeneID 38489)	DRSC28013	10.6	34.1	5982	inactive
RpL7 (GeneID 34352)	DRSC03417	5.12	2.34	1758	inactive
RpL7 (GeneID 34352)	DRSC29340	3.14		827	inactive
CG34260 + cmpy	DRSC11701	7.7	7.76	6287	inactive
tok (GeneID 42944)	DRSC17087	4.58	4.32	6897	inactive
CG15879 (GeneID 38274)	DRSC08487	2.78	4.05	6508	inactive
CG15879 (GeneID 38274)	DRSC27002	12.6	3.21	6582	inactive
Prosbeta2R1 (GeneID 31511)	DRSC18154	0.84	1.91	6577	inactive
CG7330 (GeneID 40007)	DRSC10813	6.39	3.47	6511	inactive
CG7330 (GeneID 40007)	DRSC10814	6.1	4.92	6462	inactive
CG32074 (GeneID 317842)	DRSC22246	2.35	2.73	5918	inactive
CG32074 (GeneID 317842)	DRSC26504	5.78	1.77	6126	inactive
PIG-Wb (GeneID 38220)	DRSC08526	3.53	10.9	6029	inactive
inv (GeneID 36239)	DRSC07633	4.87	7.05	6264	inactive
inv (GeneID 36239)	DRSC29580		23.6	405	inactive
CG33223 + CG32713	DRSC28559	17.5	12.5	3874	inactive
CG3770 (GeneID 37991)	DRSC04416	3.94	39.4	6518	inactive
GstO1 (GeneID 38975)	DRSC10688	1.57	3.61	5779	inactive
GstO1 (GeneID 38975)	DRSC26064	7.62	0.55	6510	inactive

4 entries from above, arranged by “infection score, replicate 2”, highest first:
predicted target	amplicon	infection score, replicate 1	infection score, replicate 2	cell count, replicate 1	Outcome
CG13557 (GeneID 37717)	DRSC04195	17.6	18.1	5055	inactive
CG9147 (GeneID 33855)	DRSC03147		4.94	72	inactive
CG3819 (GeneID 40069)	DRSC10378	1.93	3.64	6596	inactive
CG3819 (GeneID 40069)	DRSC27675	11.7	2.26	6110	inactive
